Measurements taken from patent US20230391835A1 (Pfizer, published 2023).

Columns and labels:
[1] = biological target: L44905-86-13 Triple mutant toxin B (SEQ ID NO: 6), Rxn3, 25 C, day5 (Clostridium difficile (strain 630))
[2] = biological target: L44905-86-07 Triple mutant toxin B (SEQ ID NO: 6), Rxn3, 25 C, day 1 (Clostridium difficile (strain 630))
[3] = biological target: L44905-86-04 Triple mutant toxin B (SEQ ID NO: 6), Rxn2, 10 C, day1 (Clostridium difficile (strain 630))
[4] = biological target: L44905-86-10 Triple mutant toxin B (SEQ ID NO: 6), Rxn2, 10 C, day5 (Clostridium difficile (strain 630))
[5] = biological target: L44905-86-15 Triple mutant toxin B (SEQ ID NO: 6), Rxn1, 25 C, day7 (Clostridium difficile (strain 630))
[6] = biological target: L44905-86-03 Triple mutant toxin B (SEQ ID NO: 6), Rxn1, 25 C, day1 (Clostridium difficile (strain 630))
[7] = biological target: L34346-30B, EDC/NHS-treated triple mutant toxin B (SEQ ID NO: 6), glycine added (Clostridium difficile (strain 630))
[8] = biological target: L44905-86-18 Triple mutant toxin B (SEQ ID NO: 6), Rxn3, 10 C, day7 (Clostridium difficile (strain 630))
[9] = biological target: L44905-86-16 Triple mutant toxin B (SEQ ID NO: 6), Rxn2, 10 C, day7 (Clostridium difficile (strain 630))
[10] = biological target: L44905-86-05 Triple mutant toxin B (SEQ ID NO: 6), Rxn2, 25 C, day1 (Clostridium difficile (strain 630))
[11] = biological target: L44905-86-08 Triple mutant toxin B (SEQ ID NO: 6), Rxn1, 10 C, day 5 (Clostridium difficile (strain 630))
[12] = biological target: L34346-30A, EDC/NHS-treated triple mutant toxin B (SEQ ID NO: 6) (Clostridium difficile (strain 630))
[13] = biological target: L44905-86-14 Triple mutant toxin B (SEQ ID NO: 6), Rxn1, 10 C, day7 (Clostridium difficile (strain 630))
[14] = biological target: L44905-86-11 Triple mutant toxin B (SEQ ID NO: 6), Rxn2, 25 C, day5 (Clostridium difficile (strain 630))
[15] = biological target: L44905-86-12 Triple mutant toxin B (SEQ ID NO: 6), Rxn3, 10 C, day5 (Clostridium difficile (strain 630))
[16] = biological target: L44905-86-02 Triple mutant toxin B (SEQ ID NO: 6), Rxn1, 10 C, day1 (Clostridium difficile (strain 630))
[17] = biological target: L44905-86-19 Triple mutant toxin B (SEQ ID NO: 6), Rxn3, 25 C, day7 (Clostridium difficile (strain 630))
[18] = biological target: L44905-86-06 Triple mutant toxin B (SEQ ID NO: 6), Rxn3, 10 C, day 1 (Clostridium difficile (strain 630))
[19] = biological target: L44905-86-09 Triple mutant toxin B (SEQ ID NO: 6), Rxn1, 25 C, day 5 (Clostridium difficile (strain 630))
[20] = biological target: L44905-86-17 Triple mutant toxin B (SEQ ID NO: 6), Rxn2, 25 C, day7 (Clostridium difficile (strain 630))
[21] = biological target: Toxoid B (List Biologicals), formalin-inactivated wild-type toxin B (Clostridium difficile, UniProt P18177 2-2366); test: dot blot; FI Toxoid B (List Biological)
[22] = biological target: Commercial, FI Toxoid B (List Biologicals) (Clostridium difficile, UniProt P18177 2-2366); test: dot blot, non-denaturing conditions; commercial FI Toxoid B (List Biologicals)

Measured: binding result

B1: B59-3 mAb (C. difficile TcdB neutralizing antibody) (antibody, V domains shown)
VH: QVQLQQPGAELVKPGASVKLSCKASGYTFTSYWMHWVKQRPGQGLEWIGVINPSNGRSTYSEKFKTTATVTVDKSSSTAYMQLSILTSEDSAVYYCARAYYSTSYYAMDYWGQGTSVTVSS
VL: VLMTQSPLSLPVSLGDQASISCRSSQNIVHSNGNTYLEWYLQKPGQSPKLLIYKVSNRFSGVPDRFSGSGSGTYFTLKISRVEAEDLGVYYCFQGSHFPFTFGTGTKLEIKR
binds: [1] | [2] | [3] | [4] | [5] | [6] | [7] | [8] | [9] | [10] | [11] | [12] | [13] | [14] | [15] | [16] | [17] | [18] | [19] | [20]

B2: B9-30 mAb (antibody, V domains shown)
VH: QVQLQQPGAEVVKPGAPVKLSCKASGYPFTNYWMNWVKQRPGRGLEWIGRIDPSNSEIYYNQKFKDKATLTVDKSSSTAYIQLSSLTSEDSAVYYCASGHYGSIFAYWGQGTTLTVSS
VL: VQITQSPSYLAASPGETITINCRASKSISKYLAWYQEKPGKTNKLLIYSGSTLQSGIPSRFSGSRSGTDFTLIISSLEPEDSAMYYCQQHNEYPLTFGAGTKLELKR
binds: [21]

B3: B8-26 mAb (C. difficile TcdB neutralizing antibody) (antibody, V domains shown)
VH: QVQLQQPGAELVKPGAPVKLSCKASGYSFTSYWMNWVKQRPGRGLEWIGRIDPSNSEIYYNQKFKDKATLTVDKSSSTAYIQLSSLTSEDSAVYYCASGHYGSIFAYWGQGTTLTVSS
VL: VQITQSPSYLAASPGETITINCRASKSISKYLAWYQEKPGKTNKLLLYSGSTLQSGIPSRFSGSRSGTDFTLIISSLEPEDSAMYYCQQHNEYPLTFGAGTKLELKR
binds: [1] | [2] | [3] | [4] | [5] | [6] | [7] | [8] | [9] | [10] | [11] | [12] | [13] | [14] | [15] | [16] | [17] | [18] | [19] | [20]

B4: B9-30 mAb (C. difficile TcdB neutralizing antibody) (antibody, V domains shown)
VH: QVQLQQPGAEVVKPGAPVKLSCKASGYPFTNYWMNWVKQRPGRGLEWIGRIDPSNSEIYYNQKFKDKATLTVDKSSSTAYIQLSSLTSEDSAVYYCASGHYGSIFAYWGQGTTLTVSS
VL: VQITQSPSYLAASPGETITINCRASKSISKYLAWYQEKPGKTNKLLIYSGSTLQSGIPSRFSGSRSGTDFTLIISSLEPEDSAMYYCQQHNEYPLTFGAGTKLELKR
binds: [22]
